Experimental findings from PMC11013252 (Molecules, 2024) are described below.

Positions of bridges follow the written chain, without caps; N, C: chain ends. Residues, ends and D or L forms follow the SMILES beside them.

The test system of this series is S. aureus (ATCC 25923). Format: cell-based, Staphylococcus aureus. As for the experimental part: The temperature, serum, and pH stability of antimicrobial peptide Brevinin-1BW was investigated. S. aureus (ATCC 25923) was used to determine its stability. The antimicrobial peptide solution was prepared and placed at −20 °C, 4 °C, 37 °C, 60 °C, and 100 °C for 1 h. The MIC was measured with 96-well plate method to detect the effect of temperature. […] The pH stability was achieved by inoculating S. aureus into MH medium and culturing them with shaking to reach the logarithmic growth phase. This was then diluted to 10^6 CFU/mL. Brevinin-1BW was incubated in PBS at various pH values, pH = 2 or 12, for 1 h at 37 °C. The minimal inhibitory concentrations (MIC) of the peptides were then determined. All the above experiments were repeated more than three times.

Consider `CC[C@H](C)[C@@H]1NC(=O)[C@H](CCCCN)NC(=O)[C@@H](NC(=O)[C@H](Cc2ccccc2)NC(=O)[C@@H](NC(=O)[C@@H](NC(=O)[C@@H]2CCCN2C(=O)[C@H](CC(C)C)NC(=O)[C@H](Cc2ccccc2)NC(=O)[C@H](CO)NC(=O)[C@H](C)NC(=O)[C@H](C)NC(=O)[C@H](CC(C)C)NC(=O)CNC(=O)[C@H](C)NC(=O)[C@H](CC(C)C)NC(=O)[C@H](CC(C)C)NC(=O)[C@@H]2CCCN2C(=O)[C@H](CC(C)C)NC(=O)[C@@H](N)Cc2ccccc2)[C@@H](C)O)[C@@H](C)CC)CSSC[C@@H](C(=O)O)NC(=O)[C@H](CCCCN)NC(=O)[C@H](CCCNC(=N)N)NC(=O)[C@H](CO)NC1=O` [Brevinin-1BW] (H-FLPLLAGLAASFLPTIFCKISRKC-OH; disulfide 18-24), for which the “change of MIC after incubation with serum” value (10% serum, 37 °C, 1 h) is “twice as high”. Moreover, the “antibacterial activity after incubation with a different pH” value (PBS pH 2 or 12, 1 h, 37 °C) is “still stable”. Besides, the “change of MIC with temperature” value (temperature range of −20 °C to 100 °C, 1 h) is given as “did not change significantly”.
